The target of this experiment is recombinant RT (HIV-1BH10) (Human immunodeficiency virus type 1 group M subtype B, UniProt P03366). As to the kind of experiment: Reverse transcriptase enzyme inhibition assays. Conditions: read-out: IC50 recombinant HIV-1 RT; template ribosomal RNA, duplicate experiments.

Structures are written as SMILES. The source holds more than one record for some entries. They are shown here; other results are not. There may be further records. Values given together read as repeated measurements on other runs, samples or individuals.

One may read the IC50 as the midpoint of a concentration-inhibition curve.

For `Cc1cn([C@H]2C[C@H](N=[N+]=[N-])[C@@H](COP(=O)(O)OP(=O)(O)OP(=O)(O)O)O2)c(=O)[nH]c1=O`, the IC50 was 19 nM and 8 nM.

The record behind these values is patent US6355785B1, “Guanosine-rich oligonucleotide integrase inhibitors” (Aronex Pharmaceuticals, Inc., priority 1993, dated 2002).
